Measured values as given in PMC8809408 (Frontiers in Pharmacology, 2022).

Test system: pseudotyped viruses harboring glycoprotein of vesicular stomatitis virus (VSV)
Type: cell-based

SMILES: CNCCCN1c2ccccc2CCc2ccccc21 [Desipramine]
- luciferase activity (infection by VSV-G pseudotyped viruses): remained ineffective

SMILES: CN(C)CCCN1c2ccccc2Sc2ccc(Cl)cc21 [Chlorpromazine]
- luciferase activity (infection by VSV-G pseudotyped viruses): reduced the infection

SMILES: O=c1[nH]c2ccccc2n1C1CCN(CCCC(c2ccc(F)cc2)c2ccc(F)cc2)CC1 [Pimozide]
- luciferase activity (infection by VSV-G pseudotyped viruses): reduced the infection
